Test results published in paper PMC5007486, “Thermodynamic instability of viral proteins is a pathogen-associated molecular pattern targeted by human defensins” (Scientific Reports, 2016).
Where no end group is shown, it is not given here.

Test system: HIV-1 Gag-Δp6

For “hBD-1: human β-defensin hBD-1, prepared by solid-phase peptide synthesis (DHYNCVSSGGQCLYSACPIFTKIQGTCYRGKAKCCK; ends and bridges not checked; cysteine pairing not given here; UniProt P60022 33-68, looked up)”, the “Effect on thermal melting of HIV-1 Gag-Δp6, reducing conditions” value was “had no effect on thermal melting” and the “Effect on melting profile of HIV-1 Gag-Δp6, no salt” value (pH 7.5) was “no significant changes in melting profiles”.
